Compound potency records, mixed from different reports. Data source: NIAID ChemDB in PubChem.

All rows: growth or infection tests; species: Mycobacterium fortuitum

Rows are shuffled and stem from different studies. MIC50, MIC90 and the like: level of inhibition, or share of isolates inhibited.

compound	endpoint	strain or isolate	result
CC[C@H]1OC(=O)[C@H](C)[C@@H](O[C@H]2C[C@@](C)(OC)[C@@H](O)[C@H](C)O2)[C@H](C)[C@@H](O[C@@H]2O[C@H](C)C[C@H](N(C)C)[C@H]2O)[C@](C)(O)C[C@@H](C)C(=O)[C@H](C)[C@@H](O)[C@]1(C)O	MBC90	25 isolates	>8 µg/mL
Clc1ccc2c(c1)nc1cc(Nc3ccccc3)c(=NC3CCCCC3)cc-1n2-c1ccccc1	MIC	TB87	2 µg/mL
CC1COc2c(N3CCN(C)CC3)c(F)cc3c(=O)c(C(=O)O)cn1c23	MIC50	20 strains	1.56 µg/mL
CO[C@@]1(NC(=O)Cn2cnnn2)C(=O)N2C(C(=O)O)=C(CSc3nnc(C)s3)CSC21	MIC	AO5	50 µg/mL
NC[C@H]1O[C@H](O[C@H]2[C@H](O)[C@@H](O[C@H]3O[C@H](CO)[C@@H](O)[C@H](N)[C@H]3O)[C@H](N)C[C@@H]2N)[C@H](O)[C@@H](O)[C@@H]1O	MBC	ATCC 6841	>64 µg/mL
CO[C@@]1(NC(=O)Cc2cccs2)C(=O)N2C(C(=O)O)=C(COC(N)=O)CS[C@@H]21	MIC	AO5	25 µg/mL
NC[C@@H]1O[C@H](O[C@H]2[C@@H](O)[C@H](O[C@@H]3[C@@H](O)[C@H](N)C[C@H](N)[C@H]3O[C@H]3O[C@H](CN)[C@@H](O)[C@H](O)[C@H]3N)O[C@@H]2CO)[C@H](N)[C@@H](O)[C@@H]1O	MIC50	31 isolates	8 µg/mL
CO[C@@]1(NC(=O)CCCC(N)C(=O)O)C(=O)N2C(C(=O)O)=C(COC(N)=O)CSC21	MIC	1004-8	>100 µg/mL
C[C@H]1COc2c(N3CCN(C)CC3)c(F)cc3c(=O)c(C(=O)O)cn1c23	MBC	ATCC 6841	4 µg/mL
CCc1cc(C(N)=S)ccn1	MIC50	18 strains	32 µg/mL
NC1CCN(c2c(F)cc3c(=O)c(C(=O)O)cn(C4CC4)c3c2Cl)C1	MBC90	25 isolates	2 µg/mL
CO[C@@]1(NC(=O)Cc2ccccc2)C(=O)N2C(C(=O)[O-])=C(CSc3nnc(C)s3)CSC21	MIC	1049	25 µg/mL
CC1CN(c2cc3c(cc2F)c(=O)c(C(=O)O)cn3-c2ccc(F)cc2F)CCN1	MBC90	25 isolates	8 µg/mL
CO[C@@]1(NC(=O)C2SC(=C(C(N)=O)C(=O)[O-])S2)C(=O)N2C(C(=O)[O-])=C(CSc3nnnn3C)CS[C@@H]21	MIC	1049	50 µg/mL
CC1COc2c(N3CCN(C)CC3)c(F)cc3c(=O)c(C(=O)O)cn1c23	MBC	ATCC 6841	4 µg/mL
CN[C@@H]1[C@H](O[C@H]2[C@H](O[C@H]3[C@H](O)[C@@H](O)[C@H](N=C(N)N)[C@@H](O)[C@@H]3N=C(N)N)O[C@@H](C)[C@]2(O)C=O)O[C@@H](CO)[C@H](O)[C@H]1O	MBC	ATCC 6841	>64 µg/mL

Repeating the final 2 entries:

compound,endpoint,strain or isolate,result
CC1COc2c(N3CCN(C)CC3)c(F)cc3c(=O)c(C(=O)O)cn1c23,MBC,ATCC 6841,4 µg/mL
CN[C@@H]1[C@H](O[C@H]2[C@H](O[C@H]3[C@H](O)[C@@H](O)[C@H](N=C(N)N)[C@@H](O)[C@@H]3N=C(N)N)O[C@@H](C)[C@]2(O)C=O)O[C@@H](CO)[C@H](O)[C@H]1O,MBC,ATCC 6841,>64 µg/mL